Anti-infective test results gathered from many reports (values: NIAID ChemDB through PubChem).

All rows: tests on isolated targets; species: HIV-1; protein: Reverse transcriptase; endpoint: IC50

An empty or dashed field is not shown. ICn is the concentration giving n% inhibition. Lines come from different laboratories, so protocols vary.

smiles | changes | strain | method | result
CCN1c2ncc(CNc3cccc(N)c3)cc2C(=O)N(C)c2ccc(Cl)nc21 | RT-Y181C |  | nucleotide incorporation / radiometric | <1 µM
COc1ccccc1N1CCN(CC(=O)C(C)N2C(=O)c3ccccc3C2=O)CC1 |  |  |  | 20 µM
Nc1ncnc2c1ncn2[C@H]1CC[C@@H](COP(=O)(O)OP(=O)(O)OP(=O)(O)O)O1 |  | HXB2 |  | 6.2 µM
COC(=O)c1ccccc1NC(=O)CSc1nnnn1-c1cccc2ccccc12 |  |  | nucleotide incorporation / radiometric | <2 µM
Nc1ncnc2c1ncn2[C@@]12C[C@H](O)[C@@H](COP(=O)(O)OP(=O)(O)OP(=O)(O)O)[C@@H]1C2 |  |  | nucleotide incorporation / radiometric | >10 µM
Cc1c(Sc2ccccc2)n(COCCO)c(=O)[nH]c1=O | RT-K103N |  |  | >5 µM
Cc1c(Cl)cccc1-n1nnnc1SCC(=O)Nc1ccccc1[N+](=O)[O-] | RT-K103N |  |  | 0.009 µM
CC(C)=CCOc1cc(NC(=S)c2ccoc2C)ccc1Cl | RT-L74V |  |  | 2 µM
Cc1ccc(Cl)cc1-n1nnnc1SCC(=O)Nc1ccccc1[N+](=O)[O-] |  |  |  | 0.023 µM
O=C(CCCCCCCCC(=O)Nc1cc(S(=O)(=O)O)c2cccc(S(=O)(=O)O)c2c1)Nc1cc(S(=O)(=O)O)c2cccc(S(=O)(=O)O)c2c1 |  |  | nucleotide incorporation | 26.6 µM
CO[C@H]1/C=C/O[C@@]2(C)Oc3c(C)c(O)c4c(O)c(cc(O)c4c3C2=O)NC(=O)/C(C)=C\C=C\[C@H](C)[C@H](O)[C@@H](C)[C@@H](O)[C@@H](C)[C@H](OC(C)=O)[C@@H]1C |  |  | nucleotide incorporation | 460 µM
COC(=O)c1cccc(NC(=O)CSc2nnnn2-c2c(C)cc(C)cc2C)c1C |  |  | nucleotide incorporation / radiometric | <2 µM
CC(C)=CCN1Cc2cccc3[nH]c(=S)n(c23)C[C@@H]1C |  | RF | nucleotide incorporation | 0.125 µM
CN(c1ncccc1CO)C1CCN(C(=O)c2cc3cc(NS(C)(=O)=O)ccc3[nH]2)CC1 |  | IIIB | nucleotide incorporation | 50 µM
Cc1occc1C(=S)Nc1ccc(Cl)c(/C=N/OC(C)(C)C)c1 | RT-Y188L |  |  | 95 µM
O=C(O)C1=C[C@@H](O)[C@@H](OC(=O)c2cc(O)c(O)c(O)c2)[C@H](OC(=O)c2cc(O)c(O)c(O)c2)C1 |  |  | nucleotide incorporation | 1.77 µM
O=C(CSc1nnnn1-c1ccccc1-c1ccccc1)Nc1ccccc1[N+](=O)[O-] |  |  | nucleotide incorporation / radiometric | <2 µM
COC(=O)C1(O)CC(OC(=O)/C=C/c2ccc(O)c(O)c2)C(O)C(OC(=O)/C=C/c2ccc(O)c(O)c2)C1 |  |  | nucleotide incorporation | 1.7 µM
Cc1cc(C)c(-n2nnnc2SCC(=O)Nc2ccc(C(N)=O)cc2Cl)c(C)c1 | RT-K103N |  |  | 0.006 µM
COc1cc([N+](=O)[O-])ccc1NC(=O)CSc1nnnn1-c1c(C)cc(C)cc1C |  |  | nucleotide incorporation / radiometric | <2 µM
Cc1cn([C@H]2C=C[C@@H](COP(=O)(O)OP(=O)(O)OP(=O)(O)O)O2)c(=O)[nH]c1=O |  |  | RT activity | 0.007 µM
O=C(O)C1=C[C@@H](OC(=O)c2cc(O)c(O)c(O)c2)[C@@H](O)[C@H](OC(=O)c2cc(O)c(O)c(O)c2)C1 |  |  | nucleotide incorporation | 0.52 µM
Cc1ccc(-n2nnnc2SCC(=O)Nc2ccccc2[N+](=O)[O-])c(Br)c1 | RT-K103N |  |  | 0.009 µM
Cc1cc(C)c(-n2nnnc2SCC(=O)Nc2ccc([N+](=O)[O-])cc2Cl)c(C)c1 |  |  | nucleotide incorporation / radiometric | <2 µM
O=C(O[C@@H]1CC(O)(C(=O)O)C[C@@H](OC(=O)c2cc(O)c(O)c(O)c2)C1O)c1cc(O)c(O)c(O)c1 |  |  | nucleotide incorporation | 1.31 µM
CCN1c2ncc(CO)cc2C(=O)N(C)c2ccc(Cl)nc21 | RT-Y181C |  | nucleotide incorporation / radiometric | <1 µM
CCc1c(Sc2ccccn2)n(COCc2ccccc2)c(=O)[nH]c1=O | RT-P236L |  |  | 7 µM
Cc1c(Sc2ccccc2)n(COCCO)c(=O)[nH]c1=O |  |  | nucleotide incorporation | 49 µM
CC(C)=CCN1C(C)C(=O)Nc2ccc(Cl)cc2S1(=O)=O | RT-L100I | IIIB | RT activity | >30 µM
COc1cc2cc3c(c(-c4ccc5c(c4)OCO5)c2cc1OC)COC3=O |  |  | nucleotide incorporation | 5.49 µM
CCN1c2ncc(CCc3ccccc3)cc2C(=O)Nc2c(C)ccnc21 | RT-Y181C |  | nucleotide incorporation / radiometric | <1 µM
O=C(O)P(=O)(O)Oc1ccc2c(c1)CCC2 |  |  | nucleotide incorporation | 3.6 µM
O=C(CSc1nnnn1-c1cc(Cl)ccc1Cl)Nc1ccccc1[N+](=O)[O-] |  |  |  | 0.004 µM
CCn1cc(C(=O)O)c(=O)c2ccc(C)nc21 |  |  | nucleotide incorporation | 1900 µM
CCN1c2cc(C)c(C)cc2N(C)S(=O)(=O)c2cccnc21 |  |  | nucleotide incorporation | 22 µM
Cc1cn([C@H]2C=C[C@@H](CO)O2)c(=O)[nH]c1=O |  |  | RT activity | >100 µM
CC(C)=CCN1C(=O)Nc2ccc(Cl)cc2S1(=O)=O | RT-Y181C | IIIB | RT activity | >30 µM
CN(C)[C@@H]1C(=O)C(C(N)=O)=C(O)[C@@]2(O)C(=O)C3=C(O)c4c(O)cccc4[C@@](C)(O)[C@H]3[C@H](O)[C@@H]12 |  |  | nucleotide incorporation | >2000 µM
C/C=C/CSc1cc(NC(=S)c2ccsc2C)ccc1Cl | RT-V106A |  |  | 10.1 µM
Cc1ccc(OP(=O)(O)C(=O)O)cc1 |  |  | nucleotide incorporation | 19.2 µM
CCN1c2ncc(COc3cccc(N)c3)cc2C(=O)N(C)c2ccc(Cl)nc21 | RT-Y181C |  | nucleotide incorporation / radiometric | <1 µM
Cc1cc(=O)oc2c3c(c4c(c12)OC(C)(C)C=C4)O[C@H](C)[C@@H](C)[C@H]3O |  |  | nucleotide incorporation | 19 µM
Cc1ccccc1NC(=O)CSc1nnnn1-c1cccc2ccccc12 |  |  | nucleotide incorporation / radiometric | <2 µM
CCN1c2ncc(CCl)cc2C(=O)N(C)c2ccc(Cl)nc21 |  | WT | nucleotide incorporation / radiometric | <1 µM
O=C(O)CP(=O)(O)O |  |  | nucleotide incorporation | 530 µM
CC(C)=CCN1C(=O)c2cccn2-c2ccc(Cl)cc2S1(=O)=O | RT-Y181C | IIIB | RT activity | >30 µM
CCN1c2ncccc2NC(=O)c2cc(CCc3ccccc3)cnc21 | RT-Y181C |  | nucleotide incorporation / radiometric | >1 µM
Cc1cc(C)c(-n2nnnc2SCC(=O)Nc2ccc(C#N)cc2)c(C)c1 |  |  | nucleotide incorporation / radiometric | <2 µM

For reference, 4 entries again:

smiles	changes	strain	method	result
CCN1c2cc(C)c(C)cc2N(C)S(=O)(=O)c2cccnc21			nucleotide incorporation	22 µM
O=C(CSc1nnnn1-c1ccccc1-c1ccccc1)Nc1ccccc1[N+](=O)[O-]			nucleotide incorporation / radiometric	<2 µM
O=C(O[C@@H]1CC(O)(C(=O)O)C[C@@H](OC(=O)c2cc(O)c(O)c(O)c2)C1O)c1cc(O)c(O)c(O)c1			nucleotide incorporation	1.31 µM
Cc1cc(C)c(-n2nnnc2SCC(=O)Nc2ccc([N+](=O)[O-])cc2Cl)c(C)c1			nucleotide incorporation / radiometric	<2 µM